Results of unrelated studies side by side (data: NIAID ChemDB).

Shared fields: whole-cell or culture tests; species: HIV-1; read-out: EC50

ECn is the concentration giving n% inhibition of infection, replication or growth. Lines come from different laboratories, so protocols vary. a–b is a range or a potency band. An empty or dashed field is not shown.

structure | strain or isolate | method | cells | changes | result
Cc1cncc(C(=O)NC(C)(C)C(=O)NC[C@H](O)[C@@]23CC[C@]4(C)[C@H](CC[C@@H]5[C@@]6(C)CC[C@H](OC(=O)[C@H]7C[C@@H](C(=O)O)C7(C)C)C(C)(C)[C@@H]6CC[C@]54C)C2=C(C(C)C)C(=O)C3)n1 | 92HT599 | p24 / ELISA | MT-2 |  | <1 µM
Cc1cc(C#N)cc(C(=O)c2cc(Cl)ccc2OCC(=O)Nc2ccc(S(N)(=O)=O)nc2C)c1 | HXB2 (RT-K103N Y181C) Recombinant | β-galactosidase | HeLa + HELA CD4+ | RT-K103N Y181C | <0.01 µM
CN1c2ccccc2C2C1C=C(C#N)C(=O)N2c1ccc([N+](=O)[O-])cc1 | A-92UG029 | GFP / fluorescence | HeLa |  | 0.05 µM
CC(C)C1=C2[C@H]3CC[C@@H]4[C@@]5(C)CC[C@H](OC(=O)[C@H]6C[C@@H](C(=O)O)C6(C)C)C(C)(C)[C@@H]5CC[C@@]4(C)[C@]3(C)CC[C@@]2(CCNC(=O)[C@@H](N)C(C)C)CC1=O | 92HT599 | p24 / ELISA | MT-2 |  | <1 µM
Cc1ncc(-c2ccc(OCCOc3ccc(Cl)cc3F)nc2)c(N2CCC(C)(C)CC2)c1[C@H](OC(C)(C)C)C(=O)O | NL4-3 | luminescence | MT-2 |  | 0.0037 µM
CC(C)C1=C2[C@H]3CC[C@@H]4[C@@]5(C)CC[C@H](OC(=O)[C@H]6C[C@@H](C(=O)O)C6(C)C)C(C)(C)[C@@H]5CC[C@@]4(C)[C@]3(C)CC[C@@]2([C@@H](O)CNCc2ncc[nH]2)CC1=O | 92HT599 | p24 / ELISA | MT-2 |  | <1 µM
Cc1ncc(-c2ccc(OC3CCCC3)cn2)c(N2CCC(C)(C)CC2)c1[C@H](OC(C)(C)C)C(=O)O | NL4-3 | luminescence | MT-2 |  | 0.0063 µM
CC(C)C1=C2[C@H]3CC[C@@H]4[C@@]5(C)CC[C@H](OC(=O)[C@H]6C[C@@H](C(=O)O)C6(C)C)C(C)(C)[C@@H]5CC[C@@]4(C)[C@]3(C)CC[C@@]2(CC(=O)NCc2ccc(O[C@@H]3CCOC3)cc2)CC1=O | 92HT599 | p24 / ELISA | MT-2 |  | <1 µM
Cc1ncc(-c2cnc(OCCCOc3ccccc3)c(F)c2)c(N2CCC(C)(C)CC2)c1[C@H](OC(C)(C)C)C(=O)O | NL4-3 | luminescence | MT-2 |  | 0.0028 µM
CC(=O)c1c(C)nc(-c2ccccc2)nc1NC(=O)c1ccccc1 | 52534-2 | GFP / fluorescence | HeLa |  | >50 µM
Cc1cc(C)cc(C(=O)c2cc(Cl)ccc2OCC(=O)Nc2ccc(S(N)(=O)=O)cc2C)c1 | HXB2 | β-galactosidase | HeLa + HELA CD4+ | RT-G190A | <0.01 µM
CC(C)C1=C2[C@H]3CC[C@@H]4[C@@]5(C)CC[C@H](OC(=O)[C@H]6C[C@@H](C(=O)O)C6(C)C)C(C)(C)[C@@H]5CC[C@@]4(C)[C@]3(C)CC[C@@]2(CC(=O)NCc2ccc(Cl)cc2OCCN2CCS(=O)(=O)CC2)CC1=O | 92HT599 | p24 / ELISA | MT-2 |  | <1 µM
Cc1cc(Cl)cc(C(=O)c2cc(Cl)ccc2OCC(=O)Nc2ccc(S(N)(=O)=O)cc2C)c1 | HXB2 | β-galactosidase | HeLa + HELA CD4+ | RT-Y181C | 0.101–1 µM
Cc1ncc(-c2ccc(NCCOc3ccc(F)cc3Cl)cn2)c(N2CCC(C)(C)CC2)c1[C@H](OC(C)(C)C)C(=O)O | NL4-3 | luminescence | MT-2 |  | 0.002 µM
Cc1cc(S(N)(=O)=O)ccc1NC(=O)COc1ccc(Cl)cc1C(=O)c1cccc(C#N)n1 | HXB2 | β-galactosidase | HeLa + HELA CD4+ | RT-V106A Y181C | <0.01 µM
Cc1ncc(-c2ccc(OCC3CCC3)nc2)c(N2CCC(C)(C)CC2)c1[C@H](OC(C)(C)C)C(=O)O | NL4-3 | luminescence | MT-2 |  | 0.0057 µM
Cc1cc(OCCCS(N)(=O)=O)ccc1NC(=O)COc1ccc(Cl)cc1C(=O)c1cc(F)cc(C(F)(F)F)c1 | HXB2 (RT-K103N G190A) Recombinant | β-galactosidase | HeLa + HELA CD4+ | RT-K103N G190A | 0.011–0.1 µM
Cc1ncc(-c2ccc(NCCOc3ccc(F)cc3C#N)cn2)c(N2CCC(C)(C)CC2)c1[C@H](OC(C)(C)C)C(=O)O | NL4-3 | luminescence | MT-2 |  | 0.0794 µM
Cc1cc(S(N)(=O)=O)ccc1NC(=O)COc1ccc(Cl)cc1C(=O)c1cc(F)cc(F)c1 | HXB2 | β-galactosidase | HeLa + HELA CD4+ | RT-K103N P225H | <0.01 µM
Cc1ncc(-c2ccc(OC(c3ccc(F)cc3)C3CC3)c(F)c2)c(N2CCC(C)(C)CC2)c1[C@H](OC(C)(C)C)C(=O)O | NL4-3 | luminescence | MT-2 |  | 0.0047 µM
CC(C)C1=C2[C@H]3CC[C@@H]4[C@@]5(C)CC[C@H](OC(=O)[C@H]6C[C@@H](C(=O)O)C6(C)C)C(C)(C)[C@@H]5CC[C@@]4(C)[C@]3(C)CC[C@@]2(CC(=O)NCc2ccc(Cl)cn2)CC1=O | 92HT599 | p24 / ELISA | MT-2 |  | <1 µM
Cc1cc(S(N)(=O)=O)ccc1NC(=O)COc1ccc(Cl)cc1C(=O)c1cc(Cl)cc(C#N)c1 | HXB2 | β-galactosidase | HeLa + HELA CD4+ | RT-V106I Y181C | 0.011–0.1 µM

The last 2 rows once more:

{"structure": "CC(C)C1=C2[C@H]3CC[C@@H]4[C@@]5(C)CC[C@H](OC(=O)[C@H]6C[C@@H](C(=O)O)C6(C)C)C(C)(C)[C@@H]5CC[C@@]4(C)[C@]3(C)CC[C@@]2(CC(=O)NCc2ccc(Cl)cn2)CC1=O", "strain or isolate": "92HT599", "method": "p24 / ELISA", "cells": "MT-2", "result": "<1 µM"}
{"structure": "Cc1cc(S(N)(=O)=O)ccc1NC(=O)COc1ccc(Cl)cc1C(=O)c1cc(Cl)cc(C#N)c1", "strain or isolate": "HXB2", "method": "β-galactosidase", "cells": "HeLa + HELA CD4+", "changes": "RT-V106I Y181C", "result": "0.011–0.1 µM"}